For experiment [1], the target named is T1, human Kv1.1 channel (human), Q09470.
T1 chain: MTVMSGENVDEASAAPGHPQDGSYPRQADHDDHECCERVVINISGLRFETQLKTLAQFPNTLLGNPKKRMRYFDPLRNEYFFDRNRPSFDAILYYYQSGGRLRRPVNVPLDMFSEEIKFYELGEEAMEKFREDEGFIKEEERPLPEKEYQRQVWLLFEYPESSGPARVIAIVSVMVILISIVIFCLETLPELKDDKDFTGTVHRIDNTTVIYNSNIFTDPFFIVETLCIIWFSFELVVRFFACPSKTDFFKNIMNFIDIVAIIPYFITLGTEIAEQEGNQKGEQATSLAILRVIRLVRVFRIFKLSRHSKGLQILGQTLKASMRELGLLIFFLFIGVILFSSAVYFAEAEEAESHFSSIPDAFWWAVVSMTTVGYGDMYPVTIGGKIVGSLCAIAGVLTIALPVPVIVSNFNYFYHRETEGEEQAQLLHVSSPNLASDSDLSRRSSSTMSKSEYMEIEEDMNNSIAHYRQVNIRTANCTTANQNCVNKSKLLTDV
The experiment is described as follows: cell-based or functional assay.

In experiment [2] the target is human Kv1.3 channel (human), P22001. The experiment is described as follows: cell-based or functional assay.

The record followed here is patent publication US20090281028A1.

With GVIIAVKCKISRQCLEPCKKAGMRFGKCMNGKCHCTPK (modifications not checked) [OSK1 N5A], the Kv1.1 IC50 (IonWorks electrophysiology) in experiment [1] stood at 14 pM. In experiment [2], this molecule had a Kv1.3 IC50 (IonWorks electrophysiology) of 160 pM, a WB/IFNg IC50 (human whole blood) of 0.067 nM and a WB/IL-2 IC50 (human whole blood) of 0.0679 nM.

Molecule GVIINVKCKISRQCLEPCKKAGMAFGKCMNGKCHCTPK (modifications not checked) [OSK1 R24A] returned a Kv1.1 IC50 (IonWorks electrophysiology) in experiment [1] of 1890 pM. In experiment [2], this molecule showed a Kv1.3 IC50 (IonWorks electrophysiology) above 3000 pM.

Molecule GVIINVKCKISRQCLEPCAKAGMRFGKCMNGKCHCTPK (modifications not checked) [OSK1 K19A] gave a Kv1.1 IC50 (IonWorks electrophysiology) in experiment [1] of 16.9 pM. The same molecule returned a Kv1.3 IC50 (IonWorks electrophysiology) in experiment [2] of 210 pM.

As for RVIINVKCKISRQCLEPCKKAGMRFGKCMNGKCHCTPK (modifications not checked) [OSK1 G1R], the Kv1.1 IC50 (IonWorks electrophysiology) in experiment [1] was found to be 9.91 pM. In experiment [2], this molecule had a Kv1.3 IC50 (IonWorks electrophysiology) of 68.8 pM, a WB/IFNg IC50 (human whole blood) of 0.991 nM and a WB/IL-2 IC50 (human whole blood) of 0.554 nM.

As to GVIINVKCKISRQCLEPCKKAGMRFGACMNGKCHCTPK (modifications not checked) [OSK1 K27A], in experiment [1], the Kv1.1 IC50 (IonWorks electrophysiology) was above 3000 pM. In experiment [2], this molecule showed a Kv1.3 IC50 (IonWorks electrophysiology) of 232 pM and a WB/IFNg IC50 (human whole blood) of 1.58 nM.

Molecule GVRINVKCKISRQCLEPCKKAGMRFGKCMNGKCHCTPK (modifications not checked) [OSK1 I3R] yielded a Kv1.1 IC50 (IonWorks electrophysiology) in experiment [1] of 2.47 pM. For the same molecule, in experiment [2], the Kv1.3 IC50 (IonWorks electrophysiology) was 19.9 pM, the WB/IFNg IC50 (human whole blood) worked out at 0.18 nM and the WB/IL-2 IC50 (human whole blood) was 0.148 nM.

Regarding GVIINVKCKISRQCLEPCKKAAMRFGKCMNGKCHCTPK (modifications not checked) [OSK1 G22A], in experiment [1], the Kv1.1 IC50 (IonWorks electrophysiology) was above 3000 pM. For the same molecule, in experiment [2], the Kv1.3 IC50 (IonWorks electrophysiology) is above 3000 pM, the WB/IFNg IC50 (human whole blood) was determined as 7.09 nM and the WB/IL-2 IC50 (human whole blood) was 7.09 nM.

GVIINVKCKISRQCLEPCKKAGMRFGKCMNAKCHCTPK (modifications not checked) [OSK1 G31A] came in with a Kv1.1 IC50 (IonWorks electrophysiology) in experiment [1] of 61.8 pM. Besides, in experiment [2], the Kv1.3 IC50 (IonWorks electrophysiology) amounted to 70.2 pM.

Regarding GVIINVKCKISRQCLEPCKKAGARFGKCMNGKCHCTPK (modifications not checked) [OSK1 M23A], the Kv1.1 IC50 (IonWorks electrophysiology) in experiment [1] came out at 38.6 pM. In experiment [2], the Kv1.3 IC50 (IonWorks electrophysiology) amounted to 71.4 pM, the WB/IFNg IC50 (human whole blood) was determined as 0.275 nM and the WB/IL-2 IC50 (human whole blood) amounted to 0.275 nM.

In experiment [1], GVIINVKCAISRQCLEPCKKAGMRFGKCMNGKCHCTPK (modifications not checked) [OSK1 K9A] showed a Kv1.1 IC50 (IonWorks electrophysiology) of 40.6 pM. In experiment [2], the Kv1.3 IC50 (IonWorks electrophysiology) was 166 pM, the WB/IFNg IC50 (human whole blood) is 0.0711 nM and the WB/IL-2 IC50 (human whole blood) worked out at 0.0796 nM.

In the case of GVIINVKCKISRQCLEPCKAAGMRFGKCMNGKCHCTPK (modifications not checked) [OSK1 K20A], in experiment [1], the Kv1.1 IC50 (IonWorks electrophysiology) was 185 pM. In experiment [2], this molecule gave a Kv1.3 IC50 (IonWorks electrophysiology) of 1040 pM, a WB/IFNg IC50 (human whole blood) of 0.379 nM and a WB/IL-2 IC50 (human whole blood) of 0.379 nM.

Molecule GVIINVKCKIARQCLEPCKKAGMRFGKCMNGKCHCTPK (modifications not checked) [OSK1 S11A] showed a Kv1.1 IC50 (IonWorks electrophysiology) in experiment [1] of 113 pM. In experiment [2], the Kv1.3 IC50 (IonWorks electrophysiology) stood at 40.8 pM, the WB/IFNg IC50 (human whole blood) came to 0.11 nM and the WB/IL-2 IC50 (human whole blood) amounted to 0.09 nM.

In experiment [1], GVIINRKCKISRQCLEPCKKAGMRFGKCMNGKCHCTPK (modifications not checked) [OSK1 V6R] came in with a Kv1.1 IC50 (IonWorks electrophysiology) of 2.4 pM. In experiment [2], this molecule came in with a Kv1.3 IC50 (IonWorks electrophysiology) of 8.65 pM, a WB/IFNg IC50 (human whole blood) of 0.115 nM and a WB/IL-2 IC50 (human whole blood) of 0.084 nM.

GVIINVKCKISRQCLEACKKAGMRFGKCMNGKCHCTPK (modifications not checked) [OSK1 P17A]: the Kv1.1 IC50 (IonWorks electrophysiology) in experiment [1] stood at 9.08 pM. The molecule further showed a Kv1.3 IC50 (IonWorks electrophysiology) in experiment [2] of 33.9 pM.

Molecule GVIINVKCKISRQCAEPCKKAGMRFGKCMNGKCHCTPK (modifications not checked) [OSK1 L15A] returned a Kv1.1 IC50 (IonWorks electrophysiology) in experiment [1] of 15 pM. In experiment [2], the Kv1.3 IC50 (IonWorks electrophysiology) was determined as 43.1 pM and the WB/IFNg IC50 (human whole blood) was determined as 0.107 nM.

For the molecule GVIINVKCKISRQCLEPCKKAGMRFGKCANGKCHCTPK (modifications not checked) [OSK1 M29A], the Kv1.1 IC50 (IonWorks electrophysiology) in experiment [1] was above 3330 pM. In experiment [2], the Kv1.3 IC50 (IonWorks electrophysiology) was found to be 59.5 pM, the WB/IFNg IC50 (human whole blood) was found to be 0.292 nM and the WB/IL-2 IC50 (human whole blood) is 0.447 nM.

Molecule GVIINVKCKISRQCLEPCKKAGMRFAKCMNGKCHCTPK (modifications not checked) [OSK1 G26A] returned a Kv1.1 IC50 (IonWorks electrophysiology) in experiment [1] of 733 pM. In experiment [2], this molecule came in with a Kv1.3 IC50 (IonWorks electrophysiology) of 711 pM, a WB/IFNg IC50 (human whole blood) of 10.7 nM and a WB/IL-2 IC50 (human whole blood) of 12.1 nM.

GVIINAKCKISRQCLEPCKKAGMRFGKCMNGKCHCTPK (modifications not checked) [OSK1 V6A] yielded a Kv1.1 IC50 (IonWorks electrophysiology) in experiment [1] of 12.8 pM. Besides, in experiment [2], the Kv1.3 IC50 (IonWorks electrophysiology) came to 174 pM, the WB/IFNg IC50 (human whole blood) stood at 0.0805 nM and the WB/IL-2 IC50 (human whole blood) came to 0.0733 nM.

In experiment [1], GVIINVKCKISAQCLEPCKKAGMRFGKCMNGKCHCTPK (modifications not checked) [OSK1 R12A] returned a Kv1.1 IC50 (IonWorks electrophysiology) of 55.9 pM. Further, in experiment [2], the Kv1.3 IC50 (IonWorks electrophysiology) turned out to be 390 pM, the WB/IFNg IC50 (human whole blood) is 0.155 nM and the WB/IL-2 IC50 (human whole blood) is 0.123 nM.

In experiment [1], GVIINVKCKISRQCLEPCKKAGMRFGKCMAGKCHCTPK (modifications not checked) [OSK1 N30A] yielded a Kv1.1 IC50 (IonWorks electrophysiology) above 3000 pM. In experiment [2], this molecule had a Kv1.3 IC50 (IonWorks electrophysiology) of 693 pM, a WB/IFNg IC50 (human whole blood) of 0.637 nM and a WB/IL-2 IC50 (human whole blood) of 0.971 nM.

GVIINVKCKISRQCLEPCKKAGMRAGKCMNGKCHCTPK (modifications not checked) [OSK1 F25A] displayed a Kv1.1 IC50 (IonWorks electrophysiology) in experiment [1] of 47.3 pM. In experiment [2], this molecule gave a Kv1.3 IC50 (IonWorks electrophysiology) of 1490 pM, a WB/IFNg IC50 (human whole blood) of 3.08 nM and a WB/IL-2 IC50 (human whole blood) of 3.08 nM.

In experiment [1], GVIINVKCKISRQCLAPCKKAGMRFGKCMNGKCHCTPK (modifications not checked) [OSK1 E16A] showed a Kv1.1 IC50 (IonWorks electrophysiology) of 6.87 pM. In addition, the Kv1.3 IC50 (IonWorks electrophysiology) in experiment [2] is 21.6 pM.

In experiment [1], GVIRNVKCKISRQCLEPCKKAGMRFGKCMNGKCHCTPK (modifications not checked) [OSK1 I4R] had a Kv1.1 IC50 (IonWorks electrophysiology) of 1.92 pM. For the same molecule, in experiment [2], the Kv1.3 IC50 (IonWorks electrophysiology) stood at 10.4 pM, the WB/IFNg IC50 (human whole blood) was 0.175 nM and the WB/IL-2 IC50 (human whole blood) was 0.168 nM.

In experiment [1], GVIINVKCKASRQCLEPCKKAGMRFGKCMNGKCHCTPK (modifications not checked) [OSK1 I10A] registered a Kv1.1 IC50 (IonWorks electrophysiology) of 4.46 pM. In experiment [2], the Kv1.3 IC50 (IonWorks electrophysiology) is 91.2 pM, the WB/IFNg IC50 (human whole blood) was determined as 0.0296 nM and the WB/IL-2 IC50 (human whole blood) stood at 0.05 nM.

In turn, GRIINVKCKISRQCLEPCKKAGMRFGKCMNGKCHCTPK (modifications not checked) [OSK1 V2R] showed a Kv1.1 IC50 (IonWorks electrophysiology) in experiment [1] of 25.8 pM. In experiment [2], this molecule gave a Kv1.3 IC50 (IonWorks electrophysiology) of 133 pM, a WB/IFNg IC50 (human whole blood) of 0.986 nM and a WB/IL-2 IC50 (human whole blood) of 0.775 nM.

Turning to GVIIRVKCKISRQCLEPCKKAGMRFGKCMNGKCHCTPK (modifications not checked) [OSK1 N5R], the Kv1.1 IC50 (IonWorks electrophysiology) in experiment [1] turned out to be 2.15 pM. Also, in experiment [2], the Kv1.3 IC50 (IonWorks electrophysiology) came to 13.6 pM, the WB/IFNg IC50 (human whole blood) worked out at 0.12 nM and the WB/IL-2 IC50 (human whole blood) was 0.095 nM.

The molecule GVIINVACKISRQCLEPCKKAGMRFGKCMNGKCHCTPK (modifications not checked) [OSK1 K7A] displayed a Kv1.1 IC50 (IonWorks electrophysiology) in experiment [1] of 21.9 pM. Further, in experiment [2], the Kv1.3 IC50 (IonWorks electrophysiology) was determined as 181 pM, the WB/IFNg IC50 (human whole blood) was found to be 0.0591 nM and the WB/IL-2 IC50 (human whole blood) amounted to 0.0675 nM.

GVIINVKCKISRQCLEPCKKAGMRFGKCMNGKCACTPK (modifications not checked) [OSK1 H34A]: the Kv1.1 IC50 (IonWorks electrophysiology) in experiment [1] turned out to be 368 pM. In experiment [2], this molecule gave a Kv1.3 IC50 (IonWorks electrophysiology) of 19.4 pM, a WB/IFNg IC50 (human whole blood) of 0.0573 nM and a WB/IL-2 IC50 (human whole blood) of 0.0725 nM.

Molecule GVIINVKCKISRACLEPCKKAGMRFGKCMNGKCHCTPK (modifications not checked) [OSK1 Q13A] returned a Kv1.1 IC50 (IonWorks electrophysiology) in experiment [1] of 21.6 pM. For the same molecule, in experiment [2], the Kv1.3 IC50 (IonWorks electrophysiology) came to 249 pM, the WB/IFNg IC50 (human whole blood) was found to be 0.133 nM and the WB/IL-2 IC50 (human whole blood) came to 0.148 nM.
